Pooled drug test results. Numbers come from NIAID ChemDB, via PubChem.

Shared fields: tests in culture; species: Rhinovirus; read-out: EC50

ECn: concentration that inhibits the pathogen or its effect by n%. Conditions beyond the fields shown may differ between rows. Blank or dashed fields: not listed here.

smiles | strain or isolate | method | cell line | result
C[C@@]1(O)[C@H](O)[C@@H](COP(=O)(O)OP(=O)(O)OP(=O)(O)O)O[C@H]1n1ccc2c(N)ncnc21 | TYPE 14 | neutral red | HELA OHIO-1 | 6 µM
Cn1c2ccccc2c2nnc(NCCCCO)nc21 | 33342 | plaque count | WI-38 | 20 µg/mL
CCc1nc(-c2cc(C)c(OCCCc3cc(COC)no3)c(C)c2)no1 | Serotype 25 | cytopathic effect | HeLa | 0.003 µg/mL
CCOC(=O)/C=C/[C@H](CCC(N)=O)NC(=O)NC(CC(C)C)C(=O)OCC | Serotype 14 | XTT | H1-HELA | 19.6 µM
CCOC(=O)c1ccc(OCCC2CCN(c3ccc(C)nn3)CC2)cc1 | Serotype 86 (group A) | cytopathic effect | HELA-OHIO | 0.087 µM
Cc1cc(CCCCCOc2c(Cl)cc(C3=NCCO3)cc2Cl)on1 | TYPE 17 | plaque count | HeLa | 0.18 µg/mL
CCOc1cc(CCCOc2c(C)cc(-c3noc(C)n3)cc2C)on1 | Serotype 67 | cytopathic effect | HeLa | 0.106 µg/mL
COc1ccc(Cn2cnc3c(N(C)C)nc(C(F)(F)F)nc32)cc1C | Serotype 30 | plaque count | M-HELA | >8 µM
Cn1c2ccccc2c2nnc(Nc3ccc(O)cc3)nc21 | HGP | plaque count | WI-38 | 10 µg/mL
Cc1c(-c2ccccc2)n(-c2ccc(F)cc2)c2ccc(C(C)C)cc2c1=O | 8/MRH | cytopathic effect | HELA-OHIO | >2 µg/mL
CC(=O)N[C@H]1C[C@@H](n2cnc3c(N)ncnc32)[C@H](O)[C@@H]1O | TYPE 2 | - | HFF | >100 µg/mL
CCCO/N=C/c1ccc(OCCCc2cc(C)no2)cc1 | TYPE 2 | cytopathic effect / visual reading | MRC-5 | 0.6 µg/mL
CCOC(=O)c1ccc(OCCC2CCN(c3ccc(C)nn3)CC2)cc1 | Serotype 2 | - | - | <0.035 µM
CCO/N=C/c1ccc(OCCC2CCN(c3nc(C(=O)OCC)cs3)CC2)cc1 | TYPE 14 | cytopathic effect / visual reading | MRC-5 | 0.124 µg/mL
CN=C(c1ccccc1)c1ccc2nc(N)n(S(=O)(=O)C(C)C)c2c1 | TYPE 16 | cytopathic effect / XTT | HeLa | 0.04 µg/mL
Cn1c2ccccc2c2nnc(SCCN3CCOCC3)nc21 | 33342 | plaque count | WI-38 | 0.16 µg/mL
C#CC[C@@H](C(=O)N[C@H](/C=C/C(=O)OC(C)C)C[C@@H]1CCNC1=O)n1cccc(NC(=O)c2cc(C)on2)c1=O | Serotype 39 | - | - | >10 µM
CC(C)Oc1ccc(Cn2cnc3c(N(C)C)nc(C(F)(F)F)nc32)cc1 | Serotype 15 | plaque count | M-HELA | >8 µM
CCOC(=O)c1ccc(OCCCCOc2ccc(-c3snc(SC)c3C#N)cc2)cc1 | Serotype 86 (group A) | cytopathic effect | HELA-OHIO | >2 µM
CSc1nsc(-c2ccc(OC(C)(C)C)cc2)c1C#N | Serotype 70 (group A) | cytopathic effect | HELA-OHIO | >40 µM
CCn1c2c(c(=O)c3cc(C(C)C)ccc31)Cc1ccccc1-2 | 29/5582 | cytopathic effect | HELA-OHIO | 1.5 µg/mL
Cn1c2ccccc2c2nnc(NCCCCCCO)nc21 | 1059 | plaque count | WI-38 | 20 µg/mL
CCOC(=O)/C=C/[C@H](C[C@@H]1CCNC1=O)NC(=O)Nc1cccc2ccccc12 | Serotype 14 | - | H1-HELA | >10 µM
CCn1c2ccccc2c2nnc(NCCCO)nc21 | 33342 | plaque count | WI-38 | 20 µg/mL
CSc1nsc(-c2ccc(OCCCOc3ccccc3)cc2)c1C#N | Serotype 89 (group B) | cytopathic effect | HELA-OHIO | 2.5 µM
CCO/N=C/c1ccc(OCCC2CCN(c3ccc(-c4ccc([N+](C)=O)nn4)nn3)CC2)cc1 | TYPE 1A | cytopathic effect / visual reading | KB | <0.0032 µg/mL
CCOC(=O)/C=C/[C@H](CCC(N)=O)NC(=O)[C@H](Cc1ccccc1)NC(=O)[C@H](CC(C)C)NC(=O)OCc1ccccc1 | TYPE 14 | - | H1-HELA | 0.54 µM
CSc1nsc(-c2ccc(OCCCCOc3ccc([N+](=O)[O-])cc3)cc2)c1C#N | Serotype 59 (group B) | cytopathic effect | HELA-OHIO | >0.5 µM
Cc1ccc(Cn2cnc3c(N(C)C)nc(C(F)(F)F)nc32)cc1C | Serotype 3 | plaque count | M-HELA | >8 µM
CSc1nsc(-c2ccc(OCCCCOc3ccccc3)cc2)c1C#N | Serotype 29 (group B) | cytopathic effect | HELA-OHIO | >20 µM
CCOC(=O)/C=C/[C@H](C[C@@H]1CCNC1=O)NC(=O)[C@H](Cc1ccc(F)cc1)NC(=O)[C@@H](NC(=O)c1cc(C)on1)C(C)(C)C | Serotype 9 | XTT | H1-HELA | 0.04 µM
Cc1ccccc1Cn1cnc2c(N(C)C)nc(C(F)(F)F)nc21 | Serotype 1B | plaque count | M-HELA | 0.29 µM
C=CCO/N=C/c1ccc(OCCCN2CCN(c3ccc(Cl)nn3)CC2)cc1 | TYPE 1A | cytopathic effect / visual reading | KB | 0.003 µg/mL
CC[C@H]1OC(=O)[C@H](C)[C@@H](O[C@H]2C[C@@](C)(OC)[C@@H](O)[C@H](C)O2)[C@H](C)[C@@H](O[C@@H]2O[C@H](C)C[C@H](N(C)C)[C@H]2O)[C@](C)(O)C[C@@H](C)C(=O)[C@H](C)[C@@H](O)[C@]1(C)O | TYPE 2 | - | Human tracheal epithelial cells | <10 µM
N=C(N)c1ncn([C@@H]2O[C@H](CO)[C@@H](O)[C@H]2O)n1 | - | - | - | >100 µM
CC(C)C[C@H](NC(=O)OCc1ccccc1)C(=O)N[C@@H](Cc1ccccc1)C(=O)N[C@H](/C=C/c1ccno1)CCC(N)=O | Serotype 14 | XTT | H1-HELA | 0.005 µM
Fc1cccc(Cn2cnc3c(Nc4cccc(F)c4)nc(C(F)(F)F)nc32)c1 | Serotype 11 | plaque count | M-HELA | 1.2 µM
CSc1nsc(-c2ccc(OCCOc3ccc([N+](=O)[O-])cc3)cc2)c1C#N | Serotype 14 (group A) | cytopathic effect | HELA-OHIO | >2 µM
CCN(c1cccc(F)c1)c1nc(C(F)(F)F)nc2c1ncn2Cc1cccc(F)c1 | Serotype 5 | plaque count | M-HELA | 11 µM
CN(C)c1nc(C(F)(F)F)nc2c1ncn2Cc1cccc(F)c1 | Serotype 4 | plaque count | M-HELA | >8 µM
CCCn1c2ccccc2c2nnc(NCCCO)nc21 | 1059 | plaque count | WI-38 | 20 µg/mL
CSc1nsc(-c2ccc(OCCCOc3ccc([N+](=O)[O-])cc3)cc2)c1C#N | Serotype 41 (group B) | cytopathic effect | HELA-OHIO | >1 µM
CO/N=C/c1ccc(OCCCN2CCN(c3ccc(Cl)nn3)CC2)cc1 | TYPE 1A | cytopathic effect / visual reading | KB | 0.01 µg/mL
CCOC(=O)/C=C/[C@H](C[C@@H]1CCNC1=O)NC(=O)[C@H](Cc1ccc(F)cc1)NC(=O)[C@@H](NC(=O)c1cc(C)on1)C(C)C | Serotype 14 | - | - | <0.04 µM
CO/N=C/c1ccc(OCCCCN2CCN(c3ccc(Cl)nn3)CC2)cc1 | TYPE 1A | cytopathic effect / visual reading | KB | 0.003 µg/mL
COC(=O)c1cc(CCCOc2c(C)cc(-c3noc(C)n3)cc2C)on1 | Serotype 89 | cytopathic effect | HeLa | 0.003 µg/mL
CCOC(=O)/C=C/[C@H](C[C@@H]1CCNC1=O)NC(=O)[C@@H](CC(=O)[C@@H](NC(=O)c1cc(C)on1)C(C)C)Cc1ccc(F)cc1 | Isolate 42 | cytopathic effect / visual reading | OHIO HELA-I | 0.02 µg/mL
Cc1ccc(Cn2cnc3c(N(C)C)nc(C(F)(F)F)nc32)cc1 | Serotype 16 | plaque count | M-HELA | >5 µM
CCO/N=C/c1ccc(OCCC2CCN(c3ccc(Cl)nn3)CC2)cc1 | 1857-CV51 (ICAM-1 receptor group 67) | neutral red | KB | 0.013 µM
CCOC(=O)/C=C/[C@H](CCC(N)=O)NC(=O)[C@H](Cc1ccccc1)n1ccc(C)c(NC(=O)c2cc(C)on2)c1=O | 14 | XTT | HeLa | >0.016 µM
Cc1c(-c2ccccc2)n(-c2cccc(F)c2)c2ccc(C(C)C)cc2c1=O | 50/A2#58 | cytopathic effect | HELA-OHIO | 0.023 µg/mL
CO/N=C(\C)c1ccc(OCCC2CCN(c3ccc(C)nn3)CC2)cc1 | TYPE 1A | cytopathic effect / visual reading | KB | <0.0032 µg/mL